Results of unrelated studies side by side (data: NIAID ChemDB).

Shared fields: tests in culture; organism: Mycobacterium tuberculosis

Conditions beyond the fields shown may differ between rows. An empty or dashed field is not shown. Inhibition is in % at the dose shown (toxicity tests: loss of growth or viability). ECn: concentration that inhibits the pathogen or its effect by n%. MIC bound comes from a single tested concentration. Two numbers with a dash give a range or band.

smiles | strain | read-out | read by | mutations | dose | value
CCN1CCc2c(sc(NC(=O)c3c(F)c(F)c(F)c(F)c3F)c2C(=O)NC)C1 | H37Rv | EC50 | turbidity | katG Y155 truncation mutant | - | 1.6 µM
CC(C)=NNC(=O)C1CCN1C(c1ccccc1)c1ccccc1 | H37Rv | inhibition | BACTEC | - | 12.5 µg/mL | -2%
O=C(COc1cnccn1)N/N=c1\scc(-c2ccc(Cl)cc2)n1-c1ccc(Cl)cc1Cl | H37Rv | MIC | - | - | - | 16 µg/mL
CCOC(=O)c1ccc(-n2c(=O)oc3ccc(Cl)cc3c2=O)cc1 | CNCTC MY331/88 | MIC | - | - | - | 8 µM
CCN(CC)CCCNc1cc(OC)cc2nc3ccccc3nc12.Cl.Cl | H37Rv | MIC bound | BACTEC | - | - | >12.5 µg/mL
CO[C@H]1/C=C/O[C@@]2(C)Oc3c(C)c(O)c4c(O)c(c(/C=N/N5CCN(C6CCCC6)CC5)c(O)c4c3C2=O)NC(=O)/C(C)=C\C=C\[C@H](C)[C@H](O)[C@@H](C)[C@@H](O)[C@@H](C)[C@H](O)[C@@H]1C | Isolate 900240 drug-susceptible | MIC | - | - | - | 0.25 µg/mL
COc1ccc(-c2cc(=O)c3cc(F)ccc3o2)cc1 | H37Rv | MIC | - | - | - | >12.5 µg/mL
O=c1oc2ccc([N+](=O)[O-])cc2c(=O)n1-c1ccc(Cl)cc1 | CNCTC MY331/88 | MIC | - | - | - | 31 µM
O=c1[nH]c2ccc(Cl)cc2c(O)c1N=Nc1ccc([N+](=O)[O-])cc1 | H37Rv | MIC | resazurin | - | - | <6.25 µg/mL
O=c1oc2cc(Cl)ccc2c(=O)n1-c1ccccc1 | CNCTC MY331/88 | MIC | - | - | - | 8 µM
O=C1CC(c2ccccc2)Oc2cc(Br)ccc21 | - | EC50 | - | - | - | <12.5 µg/mL
O=c1oc2ccccc2c(=O)n1-c1cccc([N+](=O)[O-])c1 | CNCTC MY331/88 | MIC | - | - | - | 16 µM
CCOP(=O)(Cc1nc(C#N)c(N)o1)OCC | H37Rv | inhibition | resazurin | - | 6.25 µg/mL | -16%
NNC(=O)c1ccncc1 | Clinical isolate BRF 7 | MIC | resazurin | SM-resistant | - | 0.03 µg/mL
COC(=O)c1cc2c(oc1=O)-c1ccccc1N(C=O)C2 | H37Rv | MIC bound | BACTEC | - | - | >12.5 µg/mL
O=c1[nH]c2cc([N+](=O)[O-])ccc2c(O)c1N=Nc1cccc(Cl)c1Cl | H37Rv | MIC | resazurin | - | - | >6.25 µg/mL
COc1ccc(CCNC(=O)Cc2cc(OC)c(OC)cc2CO)cc1OC | H37Rv | inhibition | resazurin | - | 6.25 µg/mL | 3%
CN=C(N=Nc1c(O)[nH]c2ccccc12)SCC(=O)c1ccc(Br)cc1 | H37Rv | EC50 | - | - | - | <12 µg/mL
O=C1CSC(c2ccc(Cl)cc2)N1C(=O)NCCCN1c2ccccc2Sc2ccccc21 | H37Rv | inhibition | agar | - | 50 µg/mL | 55%
O=C1C[C@@H](c2ccc(O)cc2)Oc2cc(O)c(-c3c(O)cc4c(c3O)C(=O)C[C@@H](c3ccc(O)cc3)O4)c(O)c21 | H37Rv | EC50 | - | - | - | >12.5 µg/mL
O=C1CSC(c2cccc(O)c2)N1C(=O)NCCCN1c2ccccc2Sc2ccccc21 | H37Rv | inhibition | agar | - | 25 µg/mL | 34%
CCOC(=O)c1c(NC(=O)c2c(F)c(F)c(F)c(F)c2F)sc2c1CCNC2=O | ATCC 35822 | EC50 | turbidity | - | - | 0.27 µM
COc1ccc(N=Nc2c(O)c3cc(Cl)ccc3[nH]c2=O)c(C)c1 | H37Rv | inhibition | resazurin | - | 6.25 µg/mL | 12%
CCN1CCc2c(sc(NC(=O)c3c(F)c(F)c(F)c(F)c3F)c2C#N)C1 | H37Rv | MIC | turbidity | katG Y155 truncation mutant | - | 20 µM
O=C(COc1cnccn1)N/N=c1\scc(-c2ccccc2)n1-c1ccc(Cl)cc1[N+](=O)[O-] | H37Rv | MIC | - | - | - | 9 µg/mL
O=C(/C=C/c1ccccc1I)c1ccccc1O | H37Rv | MIC | - | - | - | >12.5 µg/mL
Nc1ccc(C(=O)/C=C/c2ccccc2)cc1 | - | EC50 | - | - | - | >12.5 µg/mL
O=C(CCCCC(=O)Nc1cc(C2=NCCN2)cc(C2N=CCN2)c1)Nc1cc(C2=NCCN2)cc(C2=NCCN2)c1 | H37Rv | MIC bound | resazurin | - | - | >6.25 µg/mL
N#Cc1c(NC(=O)c2c(F)c(F)c(F)c(F)c2F)sc2c1CCOC2 | - | EC90 | low oxygen | - | - | 18 µM
c1ccc(-c2oc3ccc4ccccc4c3c2-c2ccc(OCCN3CCCC3)cc2)cc1 | H37Rv | inhibition | BACTEC | - | 12.5 µg/mL | 99%
O=c1oc2ccccc2c(=O)n1-c1ccc(Cl)c(Cl)c1 | CNCTC MY331/88 | MIC | - | - | - | 8 µM
Cc1cc(NC(=O)c2ccc(N=Nc3cc(S(=O)(=O)[O-])c4ccccc4c3O)cc2)ccc1N=Nc1ccc2cc(S(=O)(=O)[O-])cc(S(=O)(=O)[O-])c2c1.[Na+].[Na+].[Na+] | H37Rv | MIC bound | BACTEC | - | - | >12.5 µg/mL
C[C@H]1COc2c(N3CCN(C)CC3)c(F)cc3c(=O)c(C(=O)O)cn1c23 | 1R | MIC | - | - | - | 0.5 µg/mL
Cc1ccc(NS(=O)(=O)c2ccc(N)cc2)cc1Br | H37Rv | inhibition | BACTEC | - | 12.5 µg/mL | 37%
COc1ccc(C(=O)/C=C/c2ccco2)c(O)c1 | H37Rv | MIC | - | - | - | >12.5 µg/mL
COc1ccc(CC(N=Cc2ccc(O)cc2)C(=O)N[C@H]2[C@@H](O)[C@H](n3cnc4c(N(C)C)ncnc43)O[C@@H]2CO)cc1 | H37Rv | MIC bound | resazurin | - | - | <6.25 µg/mL
C=CCn1c(-c2ccc(OC)cc2)cs/c1=N\N=C1/C(=O)Nc2ccccc21 | H37Rv | inhibition | - | - | 12 µg/mL | 98%
COC(=O)c1cnc2nc(N3CCOCC3)[nH]n2c1=O | H37Rv | MIC bound | resazurin | - | - | >6.25 µg/mL
CCOC(=O)c1c(NC(=O)c2c(F)c(F)c(F)c(F)c2F)sc2c1CCOC2 | H37Rv | EC50 | turbidity | rpoB S522L mutant | - | 0.13 µM
COc1cc(C=C/C(=N\NC(=O)c2ccccc2)c2sc(Nc3ccc(Cl)c(Cl)c3)nc2C)ccc1O | H37Rv | MIC bound | resazurin | - | - | >6.25 µg/mL
Cc1ccc2oc(=O)n(-c3ccc(C#N)cc3)c(=O)c2c1 | CNCTC MY331/88 | MIC | - | - | - | 8 µM
O=C(NCCCN1c2ccccc2Sc2ccccc21)N1C(=O)/C(=C\c2ccccc2Br)SC1c1ccccc1Br | H37Rv | inhibition | agar | - | 50 µg/mL | 76%
COc1ccccc1NC(=O)c1c(N)sc2c1CCCC2 | H37Rv | MIC | resazurin | - | - | 100 µg/mL
O=C(COc1cnccn1)NNC(=S)Nc1ccc(Cl)cc1Cl | H37Rv | MIC | - | - | - | 57 µg/mL
CCOC(=O)c1c(NC(=O)c2c(F)c(F)c(F)c(F)c2F)sc2c1CCN(C(=O)OC(C)(C)C)C2 | H37Rv | MIC | resazurin | - | - | >100 µg/mL
CCOC(=O)c1ccc(-n2c(=O)oc3ccc(F)cc3c2=O)cc1 | CNCTC MY331/88 | MIC | - | - | - | 16 µM
CC/C(=C(\c1ccccc1)c1ccc(OCCN(C)C)cc1)c1ccccc1 | Strep-r | MIC | resazurin | - | - | 6.25–12.5 µg/mL
CC1(C)OC(=O)c2c(cc(N3CCOCC3)oc2=O)O1 | H37Rv | inhibition | BACTEC | - | 12.5 µg/mL | 17%
NNC(=O)c1ccncc1 | 9127 | MIC | - | - | - | ≥0.2 µg/mL
Nc1nc(N)c(Br)c(Nc2ccc(Cl)c(Cl)c2)n1 | H37Rv | inhibition | resazurin | - | 6.25 µg/mL | 28%
CCCCn1c(-c2ccc([N+](=O)[O-])cc2)cs/c1=N\N=C1/C(=O)Nc2ccc(Br)cc21 | H37Rv | inhibition | - | - | 12 µg/mL | 94%
Cn1c(=O)c(N=Nc2ccc([N+](=O)[O-])cc2)c(O)c2ccccc21 | H37Rv | inhibition | resazurin | - | 6.25 µg/mL | 20%
O=C(/N=C/c1ccc(Cl)cc1)NCCCN1c2ccccc2Sc2ccccc21 | H37Rv | inhibition | agar | - | 50 µg/mL | 32%
CC1CCC2C(C)C3C(CC4C5CC=C6CC(OC7OC(CO)C(O)C(OC8OC(CO)C(O)C(O)C8O)C7OC7OC(C)C(O)C(O)C7O)CCC6(C)C5CCC43C)N2C1.Cl | H37Rv | MIC | BACTEC | - | - | ≥128 µg/mL
COc1ccc(/C=C/C(=O)c2cccc(F)c2O)cc1 | - | inhibition | - | - | 12.5 µg/mL | 45%
CC(=O)Nc1nnc(SSc2nnc(NC(C)=O)s2)s1 | H37Rv | MIC bound | BACTEC | - | - | >12.5 µg/mL
O=C(/C=C/c1ccco1)c1ccc(Br)cc1O | H37Rv | EC50 | - | - | - | >12.5 µg/mL
COc1ccc2oc(=O)n(-c3ccc(C(F)(F)F)cc3)c(=O)c2c1 | CNCTC MY331/88 | MIC | - | - | - | 8 µM
O=C1CC(c2ccc(Br)cc2)Oc2ccccc21 | - | EC50 | - | - | - | >12.5 µg/mL
O=C(NCCCN1c2ccccc2Sc2ccccc21)N1C(=O)/C(=C\c2ccc(Cl)cc2)SC1c1ccc(Cl)cc1 | H37Rv | inhibition | agar | - | 25 µg/mL | 32%
CCN1C(=O)C(C)S/C1=N/N=C1\C(=O)Nc2ccc(Br)cc21 | H37Rv | EC50 | - | - | - | >12 µg/mL
CN1CCCn2c(nc3ccccc3c2=O)C1 | H37Rv | inhibition | resazurin | - | 6.25 µg/mL | -6%
COc1ccc(-c2oc3cc(I)ccc3c(=O)c2O)cc1 | H37Rv | MIC | - | - | - | >12.5 µg/mL
CSc1nc(NC2OC(COC(C)=O)C(OC(C)=O)C(OC(C)=O)C2OC(C)=O)c(N=CC=Nc2c(NC3OC(COC(C)=O)C(OC(C)=O)C(OC(C)=O)C3OC(C)=O)nc(SC)n(C)c2=O)c(=O)n1C | H37Rv | MIC bound | resazurin | - | - | >6.25 µg/mL
O=c1[nH]c2c([N+](=O)[O-])cccc2c(O)c1N=Nc1ccc(F)c(Cl)c1 | H37Rv | inhibition | resazurin | - | 6.25 µg/mL | 85%
O=C(COc1cnccn1)N/N=c1\scc(-c2ccc(F)cc2)n1-c1ccc(Cl)cc1 | H37Rv | MIC | - | - | - | 12.7 µg/mL
CO[C@H]1/C=C/O[C@@]2(C)Oc3c(C)c(O)c4c(O)c(c(/C=N/N5CCN(C)CC5)c(O)c4c3C2=O)NC(=O)/C(C)=C\C=C\[C@H](C)[C@H](O)[C@@H](C)[C@@H](O)[C@@H](C)[C@H](OC(C)=O)[C@@H]1C | 104396 | MIC | - | - | - | ≥2 µg/mL
O=c1c(O)c(-c2ccccc2)oc2cc(Cl)ccc12 | H37Rv | inhibition | - | - | 12.5 µg/mL | 52%
COc1ccc2c(=O)n(-c3cccc([N+](=O)[O-])c3)c(=O)oc2c1 | CNCTC MY331/88 | MIC | - | - | - | 8 µM
O=C(COc1cnccn1)N/N=c1\scc(-c2ccc(Cl)cc2Cl)n1-c1ccc(Cl)cc1[N+](=O)[O-] | H37Rv | MIC | - | - | - | 5 µg/mL
Cc1c(Cl)cccc1N=Nc1c(O)c2ccc([N+](=O)[O-])cc2[nH]c1=O | H37Rv | inhibition | resazurin | - | 6.25 µg/mL | 98%
CO[C@H]1/C=C/O[C@@]2(C)Oc3c(C)c(O)c4c(O)c(c(/C=N/N5CCN(C6CCCC6)CC5)c(O)c4c3C2=O)NC(=O)/C(C)=C\C=C\[C@H](C)[C@H](O)[C@@H](C)[C@@H](O)[C@@H](C)[C@H](OC(C)=O)[C@@H]1C | 1029 | MIC | - | - | - | 0.16 µg/mL
CCOc1cc(O)c(C(=O)/C=C/c2ccccc2)c(OCC)c1 | H37Rv | inhibition | - | - | 12.5 µg/mL | 0%
Cc1ccc(-c2cs/c(=N\NC(=O)COc3cnccn3)n2-c2ccc(Cl)cc2[N+](=O)[O-])cc1 | H37Rv | MIC | - | - | - | 4.5 µg/mL
CC(=O)O.CC(=O)O.NCCCCC1NC(=O)C(CCCCN)NC1=O | H37Rv | MIC | BACTEC | - | - | ≥12.5 µg/mL
NCC[C@H](O)C(=O)N[C@@H]1C[C@H](N)[C@@H](O[C@H]2O[C@H](CN)[C@@H](O)[C@H](O)[C@H]2O)[C@H](O)[C@H]1O[C@H]1O[C@H](CO)[C@@H](O)[C@H](N)[C@H]1O | 8S | MIC | - | - | - | 2.5 µg/mL
Cc1[nH]nc(-c2cccnc2)c1N=NN1CCC(C(N)=O)CC1 | H37Rv | inhibition | resazurin | - | 6.25 µg/mL | 99%
CCN1CCc2c(sc(NC(=O)c3c(F)c(F)c(F)c(F)c3F)c2C(N)=O)C1 | - | EC50 | low oxygen | - | - | 5 µM
COc1ccc(/C=C/C(=O)c2cc(Br)ccc2O)cc1 | H37Rv | EC50 | - | - | - | >12.5 µg/mL

Again, the opening 6 rows:

smiles	strain	read-out	read by	mutations	dose	value
CCN1CCc2c(sc(NC(=O)c3c(F)c(F)c(F)c(F)c3F)c2C(=O)NC)C1	H37Rv	EC50	turbidity	katG Y155 truncation mutant	-	1.6 µM
CC(C)=NNC(=O)C1CCN1C(c1ccccc1)c1ccccc1	H37Rv	inhibition	BACTEC	-	12.5 µg/mL	-2%
O=C(COc1cnccn1)N/N=c1\scc(-c2ccc(Cl)cc2)n1-c1ccc(Cl)cc1Cl	H37Rv	MIC	-	-	-	16 µg/mL
CCOC(=O)c1ccc(-n2c(=O)oc3ccc(Cl)cc3c2=O)cc1	CNCTC MY331/88	MIC	-	-	-	8 µM
CCN(CC)CCCNc1cc(OC)cc2nc3ccccc3nc12.Cl.Cl	H37Rv	MIC bound	BACTEC	-	-	>12.5 µg/mL
CO[C@H]1/C=C/O[C@@]2(C)Oc3c(C)c(O)c4c(O)c(c(/C=N/N5CCN(C6CCCC6)CC5)c(O)c4c3C2=O)NC(=O)/C(C)=C\C=C\[C@H](C)[C@H](O)[C@@H](C)[C@@H](O)[C@@H](C)[C@H](O)[C@@H]1C	Isolate 900240 drug-susceptible	MIC	-	-	-	0.25 µg/mL